Fold change is the IC50 on the isolate divided by the IC50 on a reference virus; 1 = unchanged, higher = more resistant. Changes are given against the subtype B consensus. No active / inactive call. The values were gathered from many studies (numbered anew) with different assays, which the source does not name. Most viruses are clinical isolates; some are laboratory strains or clones with known resistance changes. Isolates with mixed residues are left out; stretches that were not sequenced show no change. Round top values that many isolates share are read here as limits; other very high values and 0.1 may be limits too. The protease changes I3V and N37S, insertions and deletions cannot be read from the source.
What was measured:
Test in all cases: fold change of IC50 against reference virus; higher = more resistant; Cell-culture drug susceptibility tests of virus bearing the protease of each isolate, gathered from many studies.
nelfinavir = compound: Cc1c(O)cccc1C(=O)N[C@@H](CSc1ccccc1)[C@H](O)CN1C[C@H]2CCCC[C@H]2C[C@H]1C(=O)NC(C)(C)C [nelfinavir]
indinavir = compound: CC(C)(C)NC(=O)[C@@H]1CN(Cc2cccnc2)CCN1C[C@@H](O)C[C@@H](Cc1ccccc1)C(=O)N[C@H]1c2ccccc2C[C@H]1O [indinavir]
ritonavir = compound: CC(C)c1nc(CN(C)C(=O)N[C@H](C(=O)N[C@@H](Cc2ccccc2)C[C@H](O)[C@H](Cc2ccccc2)NC(=O)OCc2cncs2)C(C)C)cs1 [ritonavir]
saquinavir = compound: CC(C)(C)NC(=O)[C@@H]1C[C@@H]2CCCC[C@@H]2CN1C[C@@H](O)[C@H](Cc1ccccc1)NC(=O)[C@H](CC(N)=O)NC(=O)c1ccc2ccccc2n1 [saquinavir]

| Test System | fold change of IC50 against reference virus (nelfinavir) | fold change of IC50 against reference virus (indinavir) | fold change of IC50 against reference virus (ritonavir) | fold change of IC50 against reference virus (saquinavir) |
| --- | --- | --- | --- | --- |
| HIV-1 isolate 1077 (protease changes: L10I K14R R41K G48V L63Q I64V V82A, study 120) | 3 | 1.6 | 7.3 | 5.5 |
| HIV-1 isolate 793 (protease changes: N37C I54V I62V L63P V82A I93L, study 120) | 3.5 | 4.8 | 5.8 | 0.9 |
| HIV-1 isolate 1338 (protease changes: I13V D30N E35D M36I G52S I62V L63P I64L, study 89) | 70 | 1 | 1 | 2 |
| HIV-1 isolate 502 (protease changes: M36I I54V V82A, study 38) | 10 | 4 | 9 | 1 |
| HIV-1 isolate 1406 (protease changes: T12S I15V L19I M36I R41K L63V H69K L89M I93L, study 139) | 1 | 1 | 3 | 1 |
| HIV-1 isolate 1646 (protease changes: D30N M46I A71V, study 61) | 30.6 | 0.6 | 0.8 | 0.3 |
| HIV-1 isolate 312 (protease changes: T12K L19V E35D M36I N37D M46I L63P A71T V82I N88D L90M I93L, study 120) | 7.8 | 2.7 | 12.6 | 4.9 |
| HIV-1 isolate 753 (protease changes: M36I L63P H69Q, study 54) | 0.9 | 0.9 | 1.1 | 0.5 |
| HIV-1 isolate 346 (protease changes: L10V G16E L63A V77I, study 38) | 1 | 1 | 1 | 1 |
| HIV-1 isolate 192 (protease changes: I84V, study 61) | 4.3 | 10.6 | 16 | 3 |
| HIV-1 isolate 1293 (protease changes: L10F K20R D30N V32I M36I M46I I47V I54V L63P A71V V82A N88D L90M, study 66) | 550 | 25 | 275 | 290 |
| HIV-1 isolate 1517 (protease changes: K14R M46I I54V A71V V82A, study 38) | 2 | 3 | 7 | 2 |
| HIV-1 isolate 146 (protease changes: L63P I64L V77I, study 54) | 1.9 | 1.1 | 1.9 | – |
| HIV-1 isolate 1450 (protease changes: L10I M36I L63S L90M, study 110) | 2.3 | 0.9 | 1.8 | 0.9 |
| HIV-1 isolate 304 (protease changes: I62V L63P Q92E, study 127) | 1.1 | 0.7 | 0.9 | 0.6 |
| HIV-1 isolate 953 (protease changes: T12S I15V L19I M36I R41K Q61E H69K L89M I93L, study 139) | 1 | 2 | 1 | 1 |
| HIV-1 isolate 942 (protease changes: L10V D30N M36I L63P A71T N88D L90M, study 66) | 160 | 2.8 | 8.2 | 9.6 |
| HIV-1 isolate 269 (protease changes: T12A L63P I72V V77I I93L, study 15) | 1 | 0.7 | 0.6 | 0.5 |
| HIV-1 isolate 528 (protease changes: L10F M46L R57K L63P A71V G73S I84V L90M, study 127) | 18.4 | 10.5 | 12 | 18 |
| HIV-1 isolate 1075 (protease changes: M36I V82F, study 38) | 6 | 1 | 5 | 1 |
| HIV-1 isolate 282 (protease changes: D30N L63P V77I N88D L90M, study 66) | 32.8 | 1.3 | 2.1 | 3.7 |
| HIV-1 isolate 499 (protease changes: I13V K20I M36I R41K H69K L89M, study 114) | 0.5 | 0.5 | 0.5 | 0.6 |
| HIV-1 isolate 791 (protease changes: N88D, study 61) | 0.6 | 0.1 | 0.2 | 1 |
| HIV-1 isolate 1208 (protease changes: K20R D30N M36I F53L I54V L63P A71V N88D L90M, study 66) | 550 | 8.4 | 35 | 72 |

| Test System | fold change of IC50 against reference virus (nelfinavir) | fold change of IC50 against reference virus (indinavir) | fold change of IC50 against reference virus (ritonavir) | fold change of IC50 against reference virus (saquinavir) |
| --- | --- | --- | --- | --- |
| HIV-1 isolate 414 (protease changes: L10I E35D N37D M46I I62V L63P A71V I72E L76V L90M I93L, study 119) | 7.2 | 17.2 | 9.2 | – |
| HIV-1 isolate 561 (protease changes: R41K M46I L63P H69Q, study 57) | 5 | 2 | 2 | 3 |
| HIV-1 isolate 870 (protease changes: L10I L63A, study 110) | 2 | 1.2 | 2.1 | 1.2 |
| HIV-1 isolate 828 (protease changes: T12P K14R L24I M46I I54V L63A I64V V82A, study 119) | 8.9 | 6.5 | 49.8 | 1 |
| HIV-1 isolate 452 (protease changes: L10V I13V K14R L19P K20I E35D M36I R41K H69K K70R L89M, study 114) | 0.8 | 0.7 | 0.7 | 0.6 |
| HIV-1 isolate 715 (protease changes: D30N M46I R57G L63P N88D, study 110) | 24.7 | 1.2 | 1 | 0.9 |
| HIV-1 isolate 1345 (protease changes: M46I R57G L63P V82T I84V, study 110) | 2.2 | 2.8 | 16.1 | 1 |
| HIV-1 isolate 1195 (protease changes: I13V D60E Q61E L63P V77I L90M, study 54) | 2.6 | 0.9 | 2.3 | – |
| HIV-1 isolate 1501 (protease changes: I13V K20M M36V N37A M46I I62V L63P N88S I93L, study 120) | 31.4 | 6.1 | 1.7 | – |
| HIV-1 isolate 1254 (protease changes: L33I E35D M36I N37H R41K I54V L63P A71V I84V N88D L90M, study 120) | 76.7 | 21.9 | 113 | – |
| HIV-1 isolate 298 (protease changes: L63P, study 119) | 1.6 | 1.1 | 1.3 | – |
| HIV-1 isolate 95 (protease changes: L10I I15V I62V L63P A71V I72T G73S V77I L90M, study 57) | – | 10 | 5 | 5 |
| HIV-1 isolate 443 (protease changes: L10I R41K M46I I54V I62V L63P A71V V77I V82A L90M I93L, study 130) | – | 30 | 8 | 8 |
| HIV-1 isolate 49 (protease changes: I13V V32I M46I I47V L63P I64V Q92L I93L, study 130) | – | 8 | 8 | 1 |
| HIV-1 isolate 917 (protease changes: M46I V82T I84V, study 91) | – | 1 | 3.7 | 2 |
| HIV-1 isolate 78 (protease changes: L63P V82T I84V, study 91) | – | 2 | 3.7 | 2 |
| HIV-1 isolate 180 (protease changes: I84V, study 91) | – | 0.5 | 1 | 2 |
| HIV-1 isolate 1351 (protease changes: L10R M46I L63P I84V, study 91) | – | 2 | 1.8 | 4 |
| HIV-1 isolate 155 (protease changes: L10R K20I L24I M46I I54V R57K L63P A71V G73S V82T, study 130) | – | 30 | 8 | 8 |
| HIV-1 isolate 369 (protease changes: L10R L63P V82T, study 91) | – | 2 | 3.7 | 1 |
| HIV-1 isolate 840 (protease changes: L10I M46I I54V Q58E L63P I64V V77I V82F L90M I93L, study 130) | – | 30 | 8 | 8 |
| HIV-1 isolate 566 (protease changes: I13V K20R M36I N37D L63P I64V L90M, study 57) | – | 3 | 3 | 6 |
| HIV-1 isolate 442 (protease changes: L10I T12S I13V L33I M36I M46I I64V V82F I84V L89M, study 130) | – | 30 | 8 | 2 |
